Literature values, collected in patent US10676780B2, “Stabilisation and isolation of extracellular nucleic acids” (QIAGEN GmbH, priority 2011, dated 2020).

System: protein tyrosine phosphatase
Conditions: cited from earlier work

Phenylarsine Oxide
IC50: 18 µM
